This is an account of results in paper PMC4891693, “Discovery of prenylated flavonoids with dual activity against influenza virus and Streptococcus pneumoniae” (Scientific Reports, 2016).

In data set [1] the test system is human erythrocytes. Description: Interference with hemagglutination in the viral HA assay.
Data set [2] relates to human erythrocytes.
Setting [3] is: pure compounds, human erythrocytes, 2 h at 4 °C.

Like-named read-outs stand apart in the source and are kept apart here.

For `CC1=C[C@H](c2c(O)ccc([C@@H]3CC(=O)c4c(O)cc(O)cc4O3)c2O)[C@@H](C(=O)c2ccc(O)cc2O)[C@H](c2ccc(O)cc2O)C1` [Compound 6, kuwanon L], in the data set on human erythrocytes [1], the “sample concentrations provoking induction of hemagglutination in viral HA assay” value is listed as “no”. Also, the “sample concentrations provoking induction of hemagglutination in bacterial HA assay” value in the data set with human erythrocytes [2] is given as “no”.

As for `CC(C)=CCc1c(O)cc(O)c2c1O[C@@H](c1ccc(O)cc1)[C@H](O)C2=O` (relative stereo) [Compound 23, (2R,3R)-rel-4H-2,3-dihydro-3,5,7-trihydroxy-2-(4-hydroxyphenyl)-8-(3-methyl-2-buten-1-yl)-1-benzopyran-4-one], the “sample concentrations provoking induction of hemagglutination in viral HA assay” value with human erythrocytes [1] is recorded as “no”. Moreover, the “sample concentrations provoking induction of hemagglutination in bacterial HA assay” value with human erythrocytes [2] was “no”.

Regarding `CC(C)=CC[C@]12Oc3cc(O)c([C@H]4C=C(C)C[C@H](c5ccc(O)cc5O)[C@H]4C(=O)c4ccc(O)cc4O)c(O)c3C(=O)[C@@]1(O)Oc1cc(O)ccc12` [Compound 2, sanggenon C], in the data set on human erythrocytes [1], the “sample concentrations provoking induction of hemagglutination in viral HA assay” value is given as “no”. Moreover, the “sample concentrations provoking induction of hemagglutination in bacterial HA assay” value in the data set with human erythrocytes [2] is given as “no”.

For the molecule `CC(C)=CCc1cc(C2CC(=O)c3c(O)cc(O)cc3O2)ccc1O` (stereo not drawn) [Compound 20, 4',5,7-trihydroxy-3'-prenylflavanone], in the data set with human erythrocytes [1], the “sample concentrations provoking induction of hemagglutination in viral HA assay” value is on record as “no”. In addition, the “sample concentrations provoking induction of hemagglutination in bacterial HA assay” value in the data set with human erythrocytes [2] is “no”.

Take `CC(C)=CCc1c(O)c(CC=C(C)C)c2[nH]c3c(O)cccc3c(=O)c2c1O` [Compound 34, atalphylline]: the “sample concentrations provoking induction of hemagglutination in viral HA assay” value with human erythrocytes [1] is 10 to 100 µM. In addition, the “sample concentrations provoking induction of hemagglutination in bacterial HA assay” value in the data set on human erythrocytes [2] was “no”.

For the molecule `O=C1CC(c2ccc(O)cc2O)Oc2cc(O)cc(O)c21` (stereo not drawn) [Compound 12, 2',4',5,7-tetrahydroxyflavanone], the “sample concentrations provoking induction of hemagglutination in viral HA assay” value in the data set on human erythrocytes [1] was 10 to 100 µM. Further, the “sample concentrations provoking induction of hemagglutination in bacterial HA assay” value in the data set on human erythrocytes [2] is “no”.

For the molecule `COc1c(CC=C(C)C)cc([C@@H]2CC(=O)c3c(O)cc(O)cc3O2)cc1CC=C(C)C` [Compound 27, abyssinone-V 4'-methyl ether], the “sample concentrations provoking induction of hemagglutination in viral HA assay” value with human erythrocytes [1] was in the range of 10 to 100 µM. In the data set with human erythrocytes [2], the “sample concentrations provoking induction of hemagglutination in bacterial HA assay” value is “no”.

Turning to `COc1ccc(C2CC(=O)c3c(cc(O)c(CC=C(C)C)c3O)O2)cc1` (stereo not drawn) [Compound 19], the “sample concentrations provoking induction of hemagglutination in viral HA assay” value in the data set with human erythrocytes [1] is 100 µM. Also, the “sample concentrations provoking induction of hemagglutination in bacterial HA assay” value in the data set with human erythrocytes [2] was “no”.

With `CC(C)=CCc1c(O)cc(CCc2ccccc2)c(CC=C(C)C)c1O` [Compound 33, 2,4-bis(3-methyl-2-buten-1-yl)-5-(2-phenylethyl)-1,3-benzenediol], the “sample concentrations provoking induction of hemagglutination in viral HA assay” value in the data set with human erythrocytes [1] was 100 µM. In addition, in the data set with human erythrocytes [2], the “sample concentrations provoking induction of hemagglutination in bacterial HA assay” value is reported as “no”.

On to `CC(C)=CCc1c(O)c(CC=C(C)C)c2c(c1O)C(=O)C(c1ccc(O)cc1O)CO2` (stereo not drawn) [Compound 32, orientanol E], for which, in the data set with human erythrocytes [1], the “sample concentrations provoking induction of hemagglutination in viral HA assay” value is reported as “no”. For the same molecule, in the data set on human erythrocytes [2], the “sample concentrations provoking induction of hemagglutination in bacterial HA assay” value was “no”.

For `O=c1cc(-c2ccc(O)c(O)c2)oc2cc(O)cc(O)c12` [Compound 15, luteolin], the “sample concentrations provoking induction of hemagglutination in viral HA assay” value in the data set on human erythrocytes [1] is 3.16 to 100 µM. For the same molecule, in the data set on human erythrocytes [2], the “sample concentrations provoking induction of hemagglutination in bacterial HA assay” value was “no”.

Consider `CC(C)=CCc1c(O)c(CC=C(C)C)c2occ(-c3ccc(O)cc3)c(=O)c2c1O` [Compound 30, 6,8-diprenylgenistein], for which, in the data set with human erythrocytes [1], the “sample concentrations provoking induction of hemagglutination in viral HA assay” value is recorded as 100 or no. The “sample concentrations provoking induction of hemagglutination in bacterial HA assay” value in the data set on human erythrocytes [2] was “no”.

As to `COc1c(O)cc2c(c1O)C(=O)CC(c1ccccc1)O2` (stereo not drawn) [Compound 8, 2,3-dihydro-5,7-dihydroxy-6-methoxy-2-phenyl-4H-1-benzopyran-4-one], the “sample concentrations provoking induction of hemagglutination in viral HA assay” value in the data set with human erythrocytes [1] (setting [3]) is “no”. The “sample concentrations provoking induction of hemagglutination in bacterial HA assay” value in the data set on human erythrocytes [2] was “no”.

Turning to `COc1ccc(C2CC(=O)c3c(O)cc(O)cc3O2)cc1O` (racemic) [Compound 10, (±)-hesperetin], in the data set with human erythrocytes [1], the “sample concentrations provoking induction of hemagglutination in viral HA assay” value was “no”. The “sample concentrations provoking induction of hemagglutination in bacterial HA assay” value with human erythrocytes [2] is listed as “no”.

For `O=C1c2c(O)cc(O)cc2OC(c2c(O)cccc2O)C1O` (stereo not drawn) [Compound 13, 3,5,7,2',6'-pentahydroxyflavanone], in the data set with human erythrocytes [1], the “sample concentrations provoking induction of hemagglutination in viral HA assay” value is “no”. The “sample concentrations provoking induction of hemagglutination in bacterial HA assay” value in the data set on human erythrocytes [2] is “no”.

On to `CC(C)=CCC/C(C)=C/Cc1c(O)cc2c(c1O)C(=O)[C@H](O)[C@@H](c1ccc(O)cc1)O2` [Compound 26, bonanniol A], for which the “sample concentrations provoking induction of hemagglutination in viral HA assay” value in the data set with human erythrocytes [1] was 31.6 to 100 µM. For the same molecule, the “sample concentrations provoking induction of hemagglutination in bacterial HA assay” value with human erythrocytes [2] was “no”.

As for `COc1cc(C2CC(=O)c3c(cc(O)c(CC=C(C)C)c3O)O2)ccc1O` (stereo not drawn) [Compound 22, 2,3-dihydro-5,7-dihydroxy-2-(4-hydroxy-3-methoxyphenyl)-6-(3-methyl-2-buten-1-yl)-4H-1-benzopyran-4-one], the “sample concentrations provoking induction of hemagglutination in viral HA assay” value with human erythrocytes [1] is “no”. Further, the “sample concentrations provoking induction of hemagglutination in bacterial HA assay” value with human erythrocytes [2] is recorded as “no”.

On to sanggenon G [Compound 4], for which the “sample concentrations provoking induction of hemagglutination in viral HA assay” value in the data set on human erythrocytes [1] (setting [3]) is recorded as “no”. For the same molecule, the “sample concentrations provoking induction of hemagglutination in bacterial HA assay” value with human erythrocytes [2] is “no”.

For `CC(C)=CCc1c(O)c(CC=C(C)C)c2c(c1O)C(=O)CC(c1cc(O)cc(O)c1)O2` (stereo not drawn) [Compound 29, 2-(3,5-dihydroxyphenyl)-2,3-dihydro-5,7-dihydroxy-6,8-bis(3-methyl-2-buten-1-yl)-4H-1-benzopyran-4-one], in the data set on human erythrocytes [1], the “sample concentrations provoking induction of hemagglutination in viral HA assay” value is “no”. Also, in the data set on human erythrocytes [2], the “sample concentrations provoking induction of hemagglutination in bacterial HA assay” value is given as “no”.

With `CC(C)=CCC12Oc3cc(O)c(C4=CC5(C)CC(C4)c4ccc(O)cc4O5)c(O)c3C(=O)C1(O)Oc1cc(O)ccc12` (stereo not drawn) [Compound 1, sanggenon B], the “sample concentrations provoking induction of hemagglutination in viral HA assay” value in the data set with human erythrocytes [1] was 100 or no. Besides, the “sample concentrations provoking induction of hemagglutination in bacterial HA assay” value with human erythrocytes [2] is recorded as “no”.

On to `COc1cc([C@H]2Oc3cc([C@H]4Oc5cc(O)cc(O)c5C(=O)[C@@H]4O)ccc3O[C@@H]2CO)ccc1O` (racemic) [Compound 17, (±)-silybin], for which the “sample concentrations provoking induction of hemagglutination in viral HA assay” value with human erythrocytes [1] (setting [3]) stood at 100 µM. For the same molecule, in the data set on human erythrocytes [2], the “sample concentrations provoking induction of hemagglutination in bacterial HA assay” value is reported as “no”.

Regarding `O=c1cc(-c2ccc(O)c(O)c2O)oc2cc(O)cc(O)c12` [Compound 14, 2',3',4',5,7-pentahydroxyflavone], in the data set with human erythrocytes [1], the “sample concentrations provoking induction of hemagglutination in viral HA assay” value fell in the range of 10 to 100 µM. In addition, in the data set with human erythrocytes [2], the “sample concentrations provoking induction of hemagglutination in bacterial HA assay” value is “no”.

Turning to `CC(C)=CCc1c(O)c(CC=C(C)C)c2c(c1O)C(=O)C[C@@H](c1ccc(O)cc1)O2` [Compound 28, 6,8-diprenylnaringenin], in the data set on human erythrocytes [1], the “sample concentrations provoking induction of hemagglutination in viral HA assay” value is “no”. Moreover, in the data set on human erythrocytes [2], the “sample concentrations provoking induction of hemagglutination in bacterial HA assay” value is given as “no”.

Take `O=C1CC(c2ccc(O)c(O)c2)Oc2cc(O)cc(O)c21` (racemic) [Compound 11, (±)-eriodictyol]: the “sample concentrations provoking induction of hemagglutination in viral HA assay” value in the data set on human erythrocytes [1] is “no”. For the same molecule, in the data set on human erythrocytes [2], the “sample concentrations provoking induction of hemagglutination in bacterial HA assay” value is “no”.

Regarding `O=c1c(O)c(-c2ccc(O)cc2O)oc2cc(O)cc(O)c12` [Compound 16, morin], the “sample concentrations provoking induction of hemagglutination in viral HA assay” value with human erythrocytes [1] is given as “no”. Moreover, the “sample concentrations provoking induction of hemagglutination in bacterial HA assay” value with human erythrocytes [2] is 100 µM.

For the molecule sanggenon D [Compound 3], in the data set on human erythrocytes [1] (setting [3]), the “sample concentrations provoking induction of hemagglutination in viral HA assay” value is recorded as “no”. For the same molecule, the “sample concentrations provoking induction of hemagglutination in bacterial HA assay” value in the data set on human erythrocytes [2] was “no”.

As for `COc1cc(C2CC(=O)c3c(O)cc(O)cc3O2)cc(CC=C(C)C)c1O` (stereo not drawn) [Compound 21, 2,3-dihydro-5,7-dihydroxy-2-[4-hydroxy-3-methoxy-5-(3-methyl-2-butenyl)phenyl]-4H-1-benzopyran-4-one], the “sample concentrations provoking induction of hemagglutination in viral HA assay” value with human erythrocytes [1] is “no”. The “sample concentrations provoking induction of hemagglutination in bacterial HA assay” value with human erythrocytes [2] was “no”.

As to `CC(C)=CCC/C(C)=C/Cc1c(O)cc(O)c2c1OC(c1ccccc1)CC2=O` (racemic) [Compound 24, (R,S)-8-geranyl-5,7-dihydroxyflavanone], the “sample concentrations provoking induction of hemagglutination in viral HA assay” value in the data set on human erythrocytes [1] is given as “no”. Besides, the “sample concentrations provoking induction of hemagglutination in bacterial HA assay” value in the data set on human erythrocytes [2] is given as “no”.

Regarding `CC(C)=CCc1cc(C2CC(=O)c3ccc(O)cc3O2)ccc1O` (racemic) [Compound 18, (±)-abyssinone II], the “sample concentrations provoking induction of hemagglutination in viral HA assay” value in the data set with human erythrocytes [1] is reported as “no”. For the same molecule, the “sample concentrations provoking induction of hemagglutination in bacterial HA assay” value in the data set with human erythrocytes [2] is “no”.

Turning to `CC(C)=CCC/C(C)=C/Cc1c(O)cc2c(c1O)C(=O)CC(c1ccc(O)c(O)c1)O2` (stereo not drawn) [Compound 25], the “sample concentrations provoking induction of hemagglutination in viral HA assay” value in the data set with human erythrocytes [1] was “no”. Besides, the “sample concentrations provoking induction of hemagglutination in bacterial HA assay” value in the data set with human erythrocytes [2] is listed as “no”.

Turning to `CC(C)=CCC/C(C)=C/Cc1c(O)ccc([C@@H]2CC(=O)c3c(O)cc(O)cc3O2)c1O` [Compound 5, sanggenol A], in the data set on human erythrocytes [1], the “sample concentrations provoking induction of hemagglutination in viral HA assay” value is reported as “no”. Besides, the “sample concentrations provoking induction of hemagglutination in bacterial HA assay” value with human erythrocytes [2] was “no”.

As to `COc1cc(C2CC(=O)c3c(O)cc(O)cc3O2)ccc1O` (racemic) [Compound 9, (±)-homoeriodictyol], in the data set with human erythrocytes [1], the “sample concentrations provoking induction of hemagglutination in viral HA assay” value is “no”. Also, in the data set on human erythrocytes [2], the “sample concentrations provoking induction of hemagglutination in bacterial HA assay” value is recorded as “no”.

In the case of `CC(C)=CCc1c(O)c(CC=C(C)C)c2occ(-c3ccc(O)c(O)c3)c(=O)c2c1O` [Compound 31, 6,8-diprenylorobol], the “sample concentrations provoking induction of hemagglutination in viral HA assay” value in the data set on human erythrocytes [1] is given as “no”. In the data set on human erythrocytes [2], the “sample concentrations provoking induction of hemagglutination in bacterial HA assay” value is “no”.
